Measured values as given in patent US12636279B2, “Choline salt forms of an HIV capsid inhibitor” (Gilead Sciences, Inc., priority 2017, dated 2026).

Tested on: MT4 cells
Test: Test B: Cytotoxicity Assay (uninfected MT4 cells)
Format: cell-based
Details: 5 days, CellTiter-Glo

Compound	CC50 [µM]
Cn1nc(NS(C)(=O)=O)c2c(Cl)ccc(-c3ccc(C#CC(C)(C)O)nc3[C@H](Cc3cc(F)cc(F)c3)NC(=O)Cn3nc(C(F)F)c4c3C(F)(F)[C@@H]3C[C@H]43)c21 [Compound A]	21.8
Cn1nc(NS(C)(=O)=O)c2c(Cl)ccc(-c3ccc(C#CC(C)(C)O)nc3[C@H](Cc3cc(F)cc(F)c3)NC(=O)Cn3nc(C(F)(F)F)c4c3C(F)(F)[C@@H]3C[C@H]43)c21 [Compound B]	14.5
